These results are taken from PMC5895659, “Mechanistic and Structural Insights Into the Unique TetR-Dependent Regulation of a Drug Efflux Pump in Mycobacterium abscessus” (Frontiers in Microbiology, 2018).

Positions count from the first letter of the chain named. For at least one entry, the source does not settle the construct or the ends of the probe. A weaker result is weaker than the reference pair of the same experiment. Protein sequences can lack the tags named with them.

One data set concerns the target T1, MAB_4384 (D14N) (UniProt B1MJU8).
T1 sequence (looked up, limits assumed): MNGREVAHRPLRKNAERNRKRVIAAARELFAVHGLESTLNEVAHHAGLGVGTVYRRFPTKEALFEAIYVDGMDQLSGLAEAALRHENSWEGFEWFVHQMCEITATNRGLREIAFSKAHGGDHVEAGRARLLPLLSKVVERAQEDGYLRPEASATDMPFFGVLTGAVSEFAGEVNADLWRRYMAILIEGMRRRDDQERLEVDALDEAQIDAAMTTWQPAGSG
Kind of data set: EMSA. The note with it: severely impaired; EMSA: 280 nM fluorescein probe, 1X TAE, 1 h, room temperature, 6% native PAGE in 1X TAE; recombinant protein; label: 5' fluorescein. (In general: Mobility shift assays separate free from complexed probe on a gel.)

The target in another data set is T2, MAB_4384 (F57L) (UniProt B1MJU8).
T2 sequence (looked up, limits assumed): T1 sequence (looked up, limits assumed) with N14D, F57L
Kind of data set: EMSA. The note with it: severely impaired; EMSA: 280 nM fluorescein probe, 1X TAE, 1 h, room temperature, 6% native PAGE in 1X TAE; recombinant protein; label: 5' fluorescein.

Take “CACTTCGCCATAAGTGGATTGACTCTATCCACTTTTACCCATAGA (double strand) [Probe 1 (IRS5/L5 operator)]”: the binding result with MAB_4384 (D14N) and with MAB_4384 (F57L) was “binds more weakly” each time.
